From US20140120063A1, “NUTRITIONAL AND METABOLIC APPROACHES TO PREVENT EMERGENCE OF ENTERIC PATHOGENS” (The Board of Trustees of the Leland Stanford Junior …, priority 2012, published 2014) come the findings set out here.

SMILES strings stand for the structures.

The data set in a line: Free sialic acid in ceca of conventional mice after antibiotic treatment (DMB-HPLC). The class given is in vivo.

As for `[H]/N=C(/N)N[C@H]1[C@H](O)[C@@H](O)[C@H](O[C@@H]2O[C@@H](C)[C@](O)(C=O)[C@H]2O[C@@H]2O[C@@H](CO)[C@H](O)[C@@H](O)[C@@H]2NC)[C@@H](N/C(N)=N\[H])[C@@H]1O` [streptomycin], the “free sialic acid level in ceca” value (1 day post-streptomycin (20 mg gavage), untreated mice 17 pmoles/mg) worked out at 725 pmol/mg. For the same molecule, where the note is “day 3 post-treatment”, the “pool of free sialic acids in ceca” value was “decreased”.
